Data source: PubChem BioAssay AID624099 (ICCB-Longwood, 2012)
Purpose: 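Human genes that papillomavirus E2 requires to repress the HPV18 LCR promoter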 (primary screen). Cell system: human C33A cervical carcinoma cells (HPV-negative) stably expressing BPV1 E2 and an HPV18 LCR luciferase reporter. Reagents: siRNA pool against human genes, 40 nM. Timing: 72 h. Measured: 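Per-well luciferase luminescence, z-scored on each plate against the plate mean and SD with control wells left out, then averaged across three replicate plates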. Reading the numbers: mean z-score and z-score: higher = stronger reporter signal, weaker E2 silencing. Hit rule: 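Hit if mean z-score reaches 2 and two or more of three replicate z-scores also reach 2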.
Shown is one part, drawn at random, of about 21,000 deposited reagents. In the full data, 497 (2.4%) got an active call. 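Higher z means weaker E2 silencing; only reporter increases were scored, and knock-downs that hurt cell survival may mask genuine repressor factors.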 A number with no mark means an inactive call. No sequences are given here.

The opening 4 entries, to show the layout:
| gene | mean z-score | z-score, replicate A | z-score, replicate B | z-score, replicate C |
| --- | --- | --- | --- | --- |
| MRPL12 | -0.34 | -0.48 | -0.28 | -0.26 |
| CLEC12A-AS1 | 0.05 | 0.14 | -0.13 | 0.16 |
| HSPA1A | 0.97 | 0.73 | 0.97 | 1.2 |
| TRIM60 | -0.42 | -0.89 | -0.03 | -0.33 |

The list itself, repeating the preview:
| gene | mean z-score | z-score, replicate A | z-score, replicate B | z-score, replicate C |
| --- | --- | --- | --- | --- |
| MRPL12 | -0.34 | -0.48 | -0.28 | -0.26 |
| CLEC12A-AS1 | 0.05 | 0.14 | -0.13 | 0.16 |
| HSPA1A | 0.97 | 0.73 | 0.97 | 1.2 |
| TRIM60 | -0.42 | -0.89 | -0.03 | -0.33 |
| PTGR1 | -1.37 | -1.38 | -1.5 | -1.22 |
| QTGAL | -0.09 | 0.63 | -0.28 | -0.61 |
| ZNF215 | -0.21 | -0.1 | -0.33 | -0.19 |
| TFPT | -0.6 | -0.32 | -0.62 | -0.87 |
| H3C4 | 0.16 | 0.15 | 0.29 | 0.03 |
| LOC107985476 | -0.76 | -0.88 | -0.6 | -0.8 |
| RABL2A | 1.74 | 1.51 | 1.72 | 2 |
| GNG2 | -0.47 | -0.39 | -0.26 | -0.76 |
| LOC388604 (retired record) | -0.07 | -0.01 | -0.26 | 0.07 |
| SMCR5 | 0.14 | 0.32 | -0.07 | 0.17 |
| LOC388141 (retired record) | -0.73 | -0.57 | -0.89 | -0.73 |
| ZCCHC13 | 0.36 | 0.43 | 0.39 | 0.25 |
| ADAM7 | 1.98 | 1.87 | 2 | 2.06 |
| KISS1 | -1.11 | -0.88 | -1.09 | -1.37 |
| ISG20 | 1.22 | 1.28 | 1.22 | 1.17 |
| P3H4 | 0.12 | 0.32 | 0.18 | -0.14 |
| TRIM58 | -0.8 | -0.82 | -0.68 | -0.89 |
| FAM174C | -0.62 | -0.49 | -1.06 | -0.32 |
| RHPN1-AS1 | 1.26 | 1.59 | 1.54 | 0.63 |
| MICALL1 | -1.33 | -1.12 | -1.36 | -1.51 |
| FASTKD3 | -0.88 | -0.91 | -0.75 | -0.97 |
| PHYHIPL | -0.91 | -0.82 | -0.7 | -1.2 |
| OSBPL9 | -0.16 | -0.38 | -0.29 | 0.19 |
| PLK4 | -0.99 | -1.11 | -0.81 | -1.06 |
| PTP4A2 | 0.51 | 0.37 | 0.65 | 0.5 |
| DUOX2 | -1.15 | -1.1 | -1.28 | -1.07 |
| RUVBL2 | -0.3 | -0.55 | -0.35 | 0.01 |
| ASPM | 0.46 | 0.76 | 0.37 | 0.26 |
| LOC203604 (retired record) | -0.67 | -1.07 | -0.54 | -0.39 |
| ADARB2 | 0.41 | 0.35 | 0.36 | 0.52 |
| MTX3 | -0.55 | -0.81 | -0.48 | -0.34 |
| EFL1 | -0.46 | 0.13 | -0.45 | -1.05 |
| HERC2 | -0.25 | -0.53 | -0.39 | 0.17 |
| REL-DT | -1.04 | -0.78 | -0.89 | -1.43 |
| WDR93 | -0.98 | -0.72 | -0.92 | -1.28 |
